A mixed list of measured activities; the numbers were collected in NIAID ChemDB.

Common to all: whole-cell or culture tests; agent: Mycobacterium tuberculosis

Conditions beyond the fields shown may differ between rows.

compound | method | measure | cells | strain or isolate | dose | value
C[C@H]1CC(=O)c2c(O)cccc2[C@H]1O | resazurin | MIC |  | CIBIN 99 (MDR-MTB) |  | >100 µg/mL
NC(=S)N/N=C/c1cccc([N+](=O)[O-])c1O |  | MIC |  | A67 |  | 500 µM
CC(=O)c1ccc(C2=CC(=O)c3ccccc3C2=O)s1 | resazurin | MIC90 |  | H37Rv |  | >6.25 µg/mL
O=[N+]([O-])c1ccc(/C=N/N2CCNC2=S)o1 | BACTEC | MIC |  | H37Rv |  | ≥12.5 µg/mL
COc1cccc(CO/N=C2/CCN(c3c(F)cc4c(=O)c(C(=O)O)cn(C5CC5)c4c3OC)CC2N)c1 | resazurin | MIC |  | H37Rv |  | 4 µg/mL
CC(C)=CCC/C(C)=C/CC/C(C)=C/CC/C(C)=C/CC/C(C)=C/CC/C(C)=C/CC/C(C)=C/CC/C(C)=C/CC[C@H](C)CCOP(=O)(O)C[C@@H]1O[C@H](CO)[C@@H](O)[C@@H]1O |  | MIC |  | H37Rv |  | 50 µM
CCOC(=O)C/C(C)=N/NC(=O)CCn1c(-c2ccc(Cl)cc2)cc(C(=O)OCC)c1C |  | MIC |  | H37Rv |  | >6.25 µg/mL
c1ccc2c(CSc3ncn[nH]3)cccc2c1 |  | MIC |  | My 331/88 |  | 250 µM
NC(=S)Nc1ccc(O)cc1 |  | MIC |  | A67 |  | 500 µM
CCOC(=O)c1c(C)[nH]c(/C=N\NC(=O)c2ccncc2)c1C |  | inhibition |  | H37Rv | 6.25 µg/mL | 98%
CCN(CC)CCNC(=O)c1cc([N+](=O)[O-])cc([N+](=O)[O-])c1 |  | MIC |  | N73 |  | 5 µg/mL
N#Cc1cc(SCc2cccc3ccccc23)ccn1 |  | MIC |  | My 331/88 |  | >250 µM
Cc1cccc(OC/C(N)=N\NC(=O)c2ccncc2)c1 |  | MIC |  | ATCC 35838 (rifampin-resistant) |  | 1.56 µg/mL
CCC1CC2CCC(c3cc4c(cc3OC)N(C)C3C(O)(C(=O)OC)C(OC(C)=O)C5(CC)C=CCN6CCC43C65)c3[nH]c4ccccc4c3CCN(C1)C2 | BACTEC | MIC bound |  | H37Rv |  | >12.5 µg/mL
CCOC(=O)c1cc(-c2ccc(Cl)cc2)n(CCC(=O)N/N=C/c2ccc(OC)cc2)c1C |  | MIC |  | H37Rv |  | >6.25 µg/mL
CCN(CC)CCCC(C)Nc1cc(C)nc2cc(N(C)C)ccc12 | BACTEC | inhibition |  | H37Rv | 12.5 µg/mL | 0%
Cc1ccc2nc(SCc3cccnc3)[nH]c2c1 |  | MIC |  | My 331/88 |  | 500 µM
COc1cc(/C=C/[N+](=O)[O-])ccc1OC(C)=O |  | MIC |  | H37Rv |  | 62.5 µg/mL
O=C(Nc1cccc(C(F)(F)F)c1)c1cccc2nc3ccccc3nc12 |  | MIC |  | H37Rv 27294 |  | 0.78 µg/mL
N/C(COc1ccc([N+](=O)[O-])cc1)=N/NC(=O)c1ccncc1 |  | MIC50 |  | 16 isolates |  | 12.5 µg/mL
NC(=S)N/N=C/c1cc(Br)ccc1O |  | MIC |  | A67 |  | 250 µM
O=C(Nc1sc(Cc2ccc(OCc3c(Cl)cccc3Cl)cc2)cc1C(=O)O)c1ccccc1F | resazurin | MIC90 |  | H37Rv |  | 7.7 µM
Cc1cc(NC(=O)c2ccc(N)cc2)ccc1N=Nc1ccc2c(O)c(N=Nc3ccc4cc(S(=O)(=O)O)ccc4c3)c(S(=O)(=O)O)cc2c1 | BACTEC | inhibition |  | H37Rv | 12.5 µg/mL | 18%
O=C(Nc1ccccc1Cl)c1cccc2nc3ccccc3nc12 |  | MIC |  | H37Rv 27294 |  | 0.39 µg/mL
CC(=O)c1sc(C2=CC(=O)c3ccccc3C2=O)cc1C | resazurin | MIC90 |  | H37Rv |  | >6.25 µg/mL
NC(=O)c1n[nH]c([C@@H]2O[C@H](CO)[C@@H](O)[C@H]2O)n1 | BACTEC | inhibition |  | H37Rv | 12.5 µg/mL | 6%
NC(=S)Nc1ccc(N)cc1 |  | MIC |  | A67 |  | 500 µM
Cn1c2c(F)cccc2c(=O)c2c(O)cc3c(c21)C=CC(C)(C)O3 | BACTEC | inhibition |  | H37Rv | 12.5 µg/mL | -2%
NC(=S)NCc1ccccc1 |  | MIC |  | A67 |  | 250 µM
NNC(=O)c1ccncc1 | resazurin | MIC |  | H37Ra |  | 0.05 µg/mL
O=C(NC1CONC1=O)c1ccc(C(F)(F)F)cc1 |  | MIC |  | H37Rv |  | >50 µg/mL
CCN(CC)c1cc2nc(C3CCCCC3)[nH]c2cc1NC(=O)c1ccccc1 | resazurin | MIC99 |  | H37Rv |  | 4.3 µM
COc1cc(CO/N=C2/CCN(c3c(F)cc4c(=O)c(C(=O)O)cn(C5CC5)c4c3OC)CC2N)cc(OC)c1 | resazurin | MIC |  | H37Rv |  | 16 µg/mL
O=C(O)CC1C(=O)OC2C(COC(=O)c3cc(O)c(O)c(O)c3)OC(OC(=O)c3cc(O)c(O)c(O)c3)C(OC(=O)c3cc(O)c(O)c4c3C1C(O)C(=O)O4)C2OC(=O)c1cc(O)c(O)c(O)c1 | BACTEC | inhibition |  | H37Rv | 12.5 µg/mL | 27%
COc1ccccc1Oc1ccccc1 |  | MIC |  | H37Rv |  | 125–500 µg/mL
CCCCC(=O)Nc1sc(Cc2ccc(OCc3c(Cl)cccc3Cl)cc2)cc1C(=O)O | resazurin | MIC90 |  | H37Rv |  | 7.7 µM
C=C[C@@]1(C)C=C2CC[C@@H]3[C@](C)(CCC[C@@]3(C)C(=O)O)[C@H]2CC1 | resazurin | MIC |  | H37Ra |  | 50 µg/mL
COc1c(N2CC/C(=N/OCc3ccccc3)C(N)C2)c(F)cc2c(=O)c(C(=O)O)cn(C3CC3)c12 | resazurin | MIC |  | H37Rv |  | 4 µg/mL
O=C(NC1CONC1=O)c1ccccc1C(F)(F)F |  | MIC |  | 12PI |  | 50 µg/mL
COC(=O)c1ccc(O)c(NC(N)=S)c1 |  | MIC |  | A67 |  | 500 µM
CCCCCCC(=O)Nc1sc(Cc2ccc(OCc3c(Cl)cccc3Cl)cc2)cc1C(=O)O | resazurin | MIC90 |  | H37Rv |  | >128 µM
O=c1cc(-c2ccccc2)nc2cc(-c3ccco3)[nH]n12 | resazurin | MIC bound |  | H37Rv |  | >6.25 µg/mL
CC(=O)c1ccc(C2=CC(=O)c3ccccc3C2=O)n1C | resazurin | MIC90 |  | H37Rv |  | 3.13 µg/mL
C[C@@H](O)[C@H](N)C(=O)N[C@@H](CCCCN)C(=O)N1CCC[C@H]1C(=O)N[C@@H](CCCN=C(N)N)C(=O)O | resazurin | inhibition |  | H37Rv | 6.25 µg/mL | -4%
CC(=O)N1CCNC(C2=CC(=O)c3ccccc3C2=O)C1 | resazurin | MIC90 |  | H37Rv |  | 3.13 µg/mL
COC(=O)Cc1cc([N+](=O)[O-])c(Oc2cc(/C=C/[N+](=O)[O-])cc(OC)c2O)c([N+](=O)[O-])c1 |  | MIC |  | H37Rv |  | 15.6–52.5 µg/mL
CC1(C)C2CCC(O2)C(C)(C)C2CCC(O2)C(C)(C)C2CCC(O2)C(C)(C)C2CCC1O2 | BACTEC | inhibition |  | H37Rv | 12.5 µg/mL | 6%
Cc1ccc(OC/C(N)=N\NC(=O)c2ccncc2)cc1 |  | MIC |  | H37Rv |  | 6.25 µg/mL
Cc1[nH]c2ccc(N(C)C)cc2c(=O)c1C | BACTEC | MIC bound |  | H37Rv |  | >12.5 µg/mL
COc1cc(/C=C/[N+](=O)[O-])ccc1O |  | MIC |  | H37Rv |  | 500 µg/mL
CC1=C(C2=C(C)C(=O)c3cccc(O)c3C2=O)C(=O)c2c(O)cccc2C1=O | resazurin | MIC |  | CIBIN 99 (MDR-MTB) |  | 3.13 µg/mL
CCOC(=O)c1cc2nc3ccccn3c(=O)c2cc1N | BACTEC | MIC bound |  | H37Rv |  | >12.5 µg/mL
COc1cc(C(OC(C)=O)OC(C)=O)cc(NC(C)=O)c1Oc1cc(C(OC(C)=O)OC(C)=O)cc(OC)c1OC(C)=O |  | MIC |  | H37Rv |  | 1000 µg/mL
CC1=CC(=O)c2c(ccc(-c3ccc4c(c3O)C(=O)C=C(C)C4=O)c2O)C1=O | resazurin | MIC |  | CIBIN 99 (MDR-MTB) |  | >100 µg/mL
NC1=NC(c2ccc(Cl)cc2)N(c2ccc(S(=O)(=O)Nc3ncccn3)cc2)C(N)=N1 | BACTEC | MIC bound |  | H37Rv |  | >12.5 µg/mL
NC(=S)Nc1ccc(Cl)cc1 |  | MIC |  | A67 |  | 250 µM
CCC1=CC(=O)c2cc(CC)ccc2C1=O | resazurin | MIC90 |  | H37Rv |  | >6.25 µg/mL
CCN(CC)CCNC(=O)c1cccc([N+](=O)[O-])c1 |  | MIC |  | N73 |  | 50 µg/mL
CC(=O)N/C(=C\c1ccc(/C=C(/NC(C)=O)C2=NC3C(=O)c4ccccc4C(=O)C3N2)cc1)C1=NC2C(=O)c3ccccc3C(=O)C2N1 | BACTEC | inhibition |  | H37Rv | 12.5 µg/mL | 94%
O=C(Nc1sc(Cc2ccc(OCc3c(Cl)cccc3Cl)cc2)cc1C(=O)O)c1ccco1 | resazurin | MIC90 |  | H37Rv |  | 28.4 µM
O=C(O)C1CCC(C(=O)O)SS1 | BACTEC | MIC bound |  | H37Rv |  | >12.5 µg/mL
COc1cc(/C=C/[N+](=O)[O-])cc(Br)c1OCc1ccccc1 |  | MIC |  | H37Rv |  | 250 µg/mL
NC(=S)Nc1c(O)cccc1O |  | MIC |  | H2 |  | 7.81 µM
O=C(Nc1cccnc1)c1cccc2nc3ccccc3nc12 |  | MIC |  | H37Rv 27294 |  | 0.78 µg/mL
CC1=CC(=O)c2c(O)cccc2C1=O | resazurin | MIC |  | H37Rv (S-MTB) |  | 1.56 µg/mL
COC(=O)c1cc(OC)c(OC)c(Oc2ccc(C(=O)OC)c([N+](=O)[O-])c2)c1 |  | MIC |  | H37Rv |  | 250–1000 µg/mL
CC1=CC(=O)c2c(O)ccc(-c3ccc(O)c4c3C(=O)C(C)=CC4=O)c2C1=O | resazurin | MIC |  | CIBIN 99 (MDR-MTB) |  | 3.13 µg/mL
COC(=O)c1ccc(Oc2cc(C=O)cc(OC)c2OC(C)=O)cc1 |  | MIC |  | H37Rv |  | 250–500 µg/mL
CC[N+](C)(CC)CCNC(=O)c1cc([N+](=O)[O-])cc([N+](=O)[O-])c1 |  | MIC |  | H37Rv |  | 50 µg/mL
COC(=O)c1ccc(NC(=O)c2cccc3nc4ccccc4nc23)cc1 |  | MIC |  | H37Rv 27294 |  | 25 µg/mL
CCC1CN(c2c(F)cc3c(=O)c(C(=O)O)cn(C4CC4)c3c2OC)CCN1 |  | MIC |  | Isolate TN7804 |  | 0.1 µg/mL
CO[C@H]1/C=C/O[C@@]2(C)Oc3c(C)c(O)c4c(O)c(c(N5CCN(Cc6c(C)cc(C)cc6C)CC5)c(O)c4c3C2=O)NC(=O)/C(C)=C\C=C\[C@H](C)[C@H](O)[C@@H](C)[C@@H](O)[C@@H](C)[C@H](OC(C)=O)[C@@H]1C |  | MIC |  | H37Rv |  | 0.03 µg/mL
CN[C@@H]1[C@H](O[C@H]2[C@H](O[C@H]3[C@H](O)[C@@H](O)[C@H](N=C(N)N)[C@@H](O)[C@@H]3N=C(N)N)O[C@@H](C)[C@]2(O)C=O)O[C@@H](CO)[C@H](O)[C@H]1O |  | MIC |  | H37Rv |  | 0.625 µg/mL
NC(=S)c1cc(SCc2ccncc2)ccn1 |  | MIC |  | My 331/88 |  | 16 µM
Cc1cc(C)cc(NC(=O)c2cccc3nc4ccccc4nc23)c1 |  | MIC |  | H37Rv 27294 |  | 0.39 µg/mL
O=C1NOCC1NC(=O)C(F)(F)F |  | MIC |  | 13PI |  | 6.25 µg/mL
Cc1ccc(-n2c3nc(=O)n(C)c(=O)c-3nc3ccccc32)c(C)c1 | BACTEC | MIC bound |  | H37Rv |  | >12.5 µg/mL
NNC(=O)c1ccncc1 |  | MIC |  | WC 64/02 |  | 0.062 µg/mL
O=C1OC(c2ccco2)=N/C1=C\c1ccc(Cl)c(Cl)c1 | BACTEC | inhibition |  | H37Rv | 12.5 µg/mL | -5%
CC(=O)c1ccnc(C2=CC(=O)c3ccccc3C2=O)c1 | resazurin | MIC90 |  | H37Rv |  | 3.13 µg/mL
O=C1OS(=O)(=O)c2ccccc21 | BACTEC | inhibition |  | H37Rv | 12.5 µg/mL | 14%
CCOC(=O)c1cc(-c2ccc(Cl)cc2)n(CC(=O)N/N=C/c2ccccc2O)c1C |  | inhibition |  | H37Rv | 6.25 µg/mL | 96%
c1ccc(CSc2nc3ccccc3[nH]2)nc1 |  | MIC |  | My 331/88 |  | 250 µM
O=C1CC(SC(=S)N2CCCCC2)C(=O)N1c1ccccc1 |  | MIC |  | KM-R |  | 12.8 µg/mL
NC(=S)c1cc(SCc2ccccn2)ccn1 |  | MIC |  | My 331/88 |  | 125 µM
S=C(S)N1CCCCCC1 |  | MIC | VERO | H37Rv |  | 0.39 µg/mL
COc1c(N2CC/C(=N/OCc3ccc4c(c3)OCCO4)C(N)C2)c(F)cc2c(=O)c(C(=O)O)cn(C3CC3)c12 | resazurin | MIC |  | H37Rv |  | 8 µg/mL

The last 11 rows once more:

| compound | method | measure | cells | strain or isolate | dose | value |
|---|---|---|---|---|---|---|
| Cc1ccc(-n2c3nc(=O)n(C)c(=O)c-3nc3ccccc32)c(C)c1 | BACTEC | MIC bound |  | H37Rv |  | >12.5 µg/mL |
| NNC(=O)c1ccncc1 |  | MIC |  | WC 64/02 |  | 0.062 µg/mL |
| O=C1OC(c2ccco2)=N/C1=C\c1ccc(Cl)c(Cl)c1 | BACTEC | inhibition |  | H37Rv | 12.5 µg/mL | -5% |
| CC(=O)c1ccnc(C2=CC(=O)c3ccccc3C2=O)c1 | resazurin | MIC90 |  | H37Rv |  | 3.13 µg/mL |
| O=C1OS(=O)(=O)c2ccccc21 | BACTEC | inhibition |  | H37Rv | 12.5 µg/mL | 14% |
| CCOC(=O)c1cc(-c2ccc(Cl)cc2)n(CC(=O)N/N=C/c2ccccc2O)c1C |  | inhibition |  | H37Rv | 6.25 µg/mL | 96% |
| c1ccc(CSc2nc3ccccc3[nH]2)nc1 |  | MIC |  | My 331/88 |  | 250 µM |
| O=C1CC(SC(=S)N2CCCCC2)C(=O)N1c1ccccc1 |  | MIC |  | KM-R |  | 12.8 µg/mL |
| NC(=S)c1cc(SCc2ccccn2)ccn1 |  | MIC |  | My 331/88 |  | 125 µM |
| S=C(S)N1CCCCCC1 |  | MIC | VERO | H37Rv |  | 0.39 µg/mL |
| COc1c(N2CC/C(=N/OCc3ccc4c(c3)OCCO4)C(N)C2)c(F)cc2c(=O)c(C(=O)O)cn(C3CC3)c12 | resazurin | MIC |  | H37Rv |  | 8 µg/mL |

Inhibition is in % at the dose shown (toxicity tests: loss of growth or viability). Two numbers with a dash give a range or band. A number after MIC or MFC names an inhibition level or a share of isolates. MIC bound: limit read from a one-dose screen. Blank or dashed fields: not listed here.